Compound potency records, mixed from different reports. Data source: NIAID ChemDB in PubChem.

All rows: growth or infection tests; organism: Aspergillus fumigatus; endpoint: MIC90

MIC50, MIC90 and the like: level of inhibition, or share of isolates inhibited. Lines come from different laboratories, so protocols vary. Blank or dashed fields: not listed here. Two numbers with a dash give a range or band.

structure	strain or isolate	value
C[C@@H](c1ncncc1F)[C@](O)(Cn1cncn1)c1ccc(F)cc1F	25 isolates	0.5 µg/mL
CC(=O)OCC1C=C(c2cccc(Cl)c2)C(=O)O1	12 isolates	2 µg/mL
C[C@@H](c1ncncc1F)[C@](O)(Cn1cncn1)c1ccc(F)cc1F	25 isolates	0.25 µg/mL
CC(=O)OCC1C=C(c2ccc(Br)cc2)C(=O)O1	12 isolates	1 µg/mL
C[C@H]1[C@H](O)[C@@H](C)/C=C/C=C/C=C/C=C/C=C/C=C/C=C/[C@H](O[C@@H]2O[C@H](C)[C@@H](O)[C@H](N)[C@@H]2O)C[C@@H]2O[C@](O)(C[C@@H](O)C[C@@H](O)CC[C@H](O)[C@@H](O)C[C@@H](O)CC(=O)O[C@H]1C)C[C@H](O)[C@H]2C(=O)O	35 isolates	2 µg/mL
CCC(C)CC(C)CCCCCCCCC(=O)N[C@H]1C[C@@H](O)[C@H](NCCN)NC(=O)[C@@H]2[C@@H](O)CCN2C(=O)[C@H]([C@H](O)CCN)NC(=O)[C@H]([C@H](O)[C@@H](O)c2ccc(O)cc2)NC(=O)[C@@H]2C[C@@H](O)CN2C(=O)[C@H]([C@@H](C)O)NC1=O	62 isolates	0.5 µg/mL
C[C@@H](c1ncncc1F)[C@](O)(Cn1cncn1)c1ccc(F)cc1F	-	0.5 µg/mL
CCN1CCC(O)(/C=C/c2ccc(Cl)cc2)C(C(=O)/C=C/c2ccc(Cl)cc2)C1	18 strains (amphotericin B-resistant)	5.84 µg/mL
CCC(C)n1ncn(-c2ccc(N3CCN(c4ccc(OC[C@H]5CO[C@](Cn6cncn6)(c6ccc(Cl)cc6Cl)O5)cc4)CC3)cc2)c1=O	-	0.1 µg/mL
CCC(C)n1ncn(-c2ccc(N3CCN(c4ccc(OC[C@H]5CO[C@](Cn6cncn6)(c6ccc(Cl)cc6Cl)O5)cc4)CC3)cc2)c1=O	62 isolates	>8 µg/mL
C[C@@H](c1ncncc1F)[C@](O)(Cn1cncn1)c1ccc(F)cc1F	94 isolates	1 µg/mL
CCC(C)n1ncn(-c2ccc(N3CCN(c4ccc(OC[C@H]5CO[C@](Cn6cncn6)(c6ccc(Cl)cc6Cl)O5)cc4)CC3)cc2)c1=O	25 isolates	4 µg/mL
CCC(C)n1ncn(-c2ccc(N3CCN(c4ccc(OC[C@H]5CO[C@](Cn6cncn6)(c6ccc(Cl)cc6Cl)O5)cc4)CC3)cc2)c1=O	-	1 µg/mL
CC[C@@H]([C@H](C)O)n1ncn(-c2ccc(N3CCN(c4ccc(OC[C@@H]5CO[C@@](Cn6cncn6)(c6ccc(F)cc6F)C5)cc4)CC3)cc2)c1=O	17 isolates	0.031 µg/mL
C[C@H]1[C@H](O)[C@@H](C)/C=C/C=C/C=C/C=C/C=C/C=C/C=C/[C@H](O[C@@H]2O[C@H](C)[C@@H](O)[C@H](N)[C@@H]2O)C[C@@H]2O[C@](O)(C[C@@H](O)C[C@@H](O)CC[C@H](O)[C@@H](O)C[C@@H](O)CC(=O)O[C@H]1C)C[C@H](O)[C@H]2C(=O)O	150 clinical isolates	0.5–1 µg/mL
C[C@@H](c1ncncc1F)[C@](O)(Cn1cncn1)c1ccc(F)cc1F	35 isolates	1 µg/mL
CCCCCOc1ccc(-c2cc(-c3ccc(C(=O)N[C@H]4C[C@@H](O)[C@@H](O)NC(=O)[C@@H]5[C@@H](O)[C@@H](C)CN5C(=O)[C@H]([C@H](O)CC(N)=O)NC(=O)[C@H]([C@H](O)[C@@H](O)c5ccc(O)c(OS(=O)(=O)O)c5)NC(=O)[C@@H]5C[C@@H](O)CN5C(=O)[C@H]([C@@H](C)O)NC4=O)cc3)no2)cc1	29 isolates	0.0156 µg/mL
CCC(C)CC(C)CCCCCCCCC(=O)N[C@H]1C[C@@H](O)[C@H](NCCN)NC(=O)[C@@H]2[C@@H](O)CCN2C(=O)[C@H]([C@H](O)CCN)NC(=O)[C@H]([C@H](O)[C@@H](O)c2ccc(O)cc2)NC(=O)[C@@H]2C[C@@H](O)CN2C(=O)[C@H]([C@@H](C)O)NC1=O	25 isolates	0.5 µg/mL
C[C@@H](c1ncncc1F)[C@](O)(Cn1cncn1)c1ccc(F)cc1F	3 clinical isolates	1 µg/mL
C[C@@H](c1ncncc1F)[C@](O)(Cn1cncn1)c1ccc(F)cc1F	28 isolates	0.12 µg/mL
CCCCCOc1ccc(-c2ccc(-c3ccc(C(=O)N[C@H]4C[C@@H](O)[C@@H](O)NC(=O)[C@@H]5[C@@H](O)[C@@H](C)CN5C(=O)[C@H]([C@H](C)O)NC(=O)[C@H]([C@H](O)[C@@H](O)c5ccc(O)cc5)NC(=O)[C@@H]5C[C@@H](O)CN5C(=O)[C@H]([C@H](C)O)NC4=O)cc3)cc2)cc1	35 isolates	0.0075 µg/mL
CC(=O)N1CCN(c2ccc(OC[C@H]3CO[C@](Cn4ccnc4)(c4ccc(Cl)cc4Cl)O3)cc2)CC1	25 isolates	4 µg/mL

The first 2 rows once more:

structure | strain or isolate | value
C[C@@H](c1ncncc1F)[C@](O)(Cn1cncn1)c1ccc(F)cc1F | 25 isolates | 0.5 µg/mL
CC(=O)OCC1C=C(c2cccc(Cl)c2)C(=O)O1 | 12 isolates | 2 µg/mL